Reference: ChEMBL document CHEMBL5528015, “Structure-based design of SARS-CoV-2 papain-like protease inhibitors” (Eur J Med Chem, 2024)

Test system: SARS-CoV-2
Experiment: microbe, parasite or virus in culture
Conditions: Severe acute respiratory syndrome coronavirus 2, Caco-2, 24 h

For `Cc1ccc(N)cc1C(=O)N[C@H](C)c1cccc2ccccc12`, which EC50 is on record?
The EC50 was 25.5 µM.
